pKd: −log10 of the molar value. Tags and fusion partners may be left off the protein sequences shown.
Molecular target: T1, MvaT full-length (UniProt Q9HW86)
T1 sequence (looked up): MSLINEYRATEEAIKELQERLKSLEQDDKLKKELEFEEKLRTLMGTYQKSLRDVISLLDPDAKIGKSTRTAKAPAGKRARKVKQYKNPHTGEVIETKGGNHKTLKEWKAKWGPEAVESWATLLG
Assay: EMSA
Conditions: apparent Kd; EMSA: 8 mM Tris pH 8.0, 15 mM HEPES pH 7.9, 40 mM NaCl, 40 mM KCl, 1.4 mM EDTA, 0.5 mM DTT, 9.95% glycerol, room temp; recombinant protein; residues 1-124; label: 5'-32P; probe letters rebuilt from the primers and the genome

Sequence: GCGAAGCCGTGGTTCGAGTTGTTGACTTGTCGCAAGACGGATTCTCCGAACAGCATCGGCGCAGCGCCCACTTGCAACGAGAGTGCGCACGCCGCCGTTGGCACTCGTCTGCGCACCGGACTTCTGAGCGGCGGCGGAAAAAGCTTGCTGCGCAAGGAGAAGCGCCTGCGGGTGAACATGGAAATTGCCCGGGAAAAGTCGACGGTAATTATTCGTTGAATAACAGGGAAGTGCATACTCCAACTTGGAAGTTAACTGCATGGCACCATCCATGCATTACACGGATGACGGTTTTTATTATAAGTCCAAACTGGCGAAGACAAGCAAGAGAGGCCGGGAT (double strand) [cupA1 promoter 340 bp]
- pKd: 7.24

Source: paper PMC4466236, “A Novel AT-Rich DNA Recognition Mechanism for Bacterial Xenogeneic Silencer MvaT”
